Pooled drug test results. Numbers come from NIAID ChemDB, via PubChem.

Common to all: tests in culture; species: Mycobacterium tuberculosis

A number after MIC or MFC names an inhibition level or a share of isolates.

smiles,tested at,endpoint,method,strain or isolate,value
CC(C)CC(C)NCCNCCCCc1ccccc1,-,MIC,-,-,50 µM
COc1ccc(CNCCNC(C)c2cccc3ccccc23)cc1OC,-,MIC,-,-,50 µM
COC1OC2COC(C)(C)OC2C2OC(C)(C)OC12,12.5 µg/mL,inhibition,BACTEC,H37Rv,0%
CC(C)c1ccc2c(c1)CC[C@H]1[C@](C)(CNCCNC3CCCCC3C)CCC[C@]21C,-,MIC,-,-,25 µM
CC[C@H]1OC(=O)[C@H](C)[C@@H](O[C@H]2C[C@@](C)(OC)[C@@H](O)[C@H](C)O2)[C@H](C)[C@@H](O[C@@H]2O[C@H](C)C[C@H](N(C)C)[C@H]2O)[C@](C)(O)C[C@@H](C)C(=O)[C@H](C)[C@@H](O)[C@]1(C)O,-,MIC90,-,DRUG-SUS,>8 µg/mL
CNC(=O)c1ccc(NC(=O)Nc2ccc(C3=NCCN3)cc2)cc1NC(=O)Nc1cccc(C2=NCCN2)c1,12.5 µg/mL,inhibition,BACTEC,H37Rv,96%
CC(CNCCc1ccc(O)cc1)NC[C@@H]1CC[C@H]2C[C@@H]1C2(C)C,-,MIC,-,-,25 µM
CO[C@H]1/C=C/O[C@@]2(C)Oc3c(C)c(O)c4c(O)c(c5c(c4c3C2=O)NC2(CCN(CC(C)C)CC2)N=5)=NC(=O)/C(C)=C\C=C\[C@H](C)[C@H](O)[C@@H](C)[C@@H](O)[C@@H](C)[C@H](OC(C)=O)[C@@H]1C,-,MBC,-,29 (rifampin-resistant),0.2 µg/mL
CC(C)=CCC/C(C)=C/CNCCNCC(C)c1ccccc1,-,MIC,-,-,50 µM
NCC[C@H](O)C(=O)N[C@@H]1C[C@H](N)[C@@H](O[C@H]2O[C@H](CN)[C@@H](O)[C@H](O)[C@H]2O)[C@H](O)[C@H]1O[C@H]1O[C@H](CO)[C@@H](O)[C@H](N)[C@H]1O,-,MIC,broth dilution / resazurin,MDR7,128 µg/mL
CCCCCC(C)NCCNC[C@]1(C)CCC[C@]2(C)c3ccc(C(C)C)cc3CC[C@@H]12,-,MIC,-,-,12.5 µM
CC(NCCNCCc1ccccc1Cl)c1cccc2ccccc12,-,MIC,-,-,25 µM
CC1CCCC(NCCNC(c2ccccc2)c2ccccc2)C1C,-,MIC,-,-,50 µM
CCOC(=O)/C=C1/CCC(C)n2c1nccc2=O,6.25 µg/mL,inhibition,resazurin,H37Rv,0%
ON=C(c1ccc(Br)cc1)c1ccc(Br)cc1,-,MIC,-,H37Rv,>100 µg/mL
COC(=O)Nc1cc(NC(O)/C(=C/O)c2ccccc2)c([N+](=O)[O-])c(N)n1,12.5 µg/mL,inhibition,-,H37Rv,4%
CC1CCCC(NCCNC2CCCCCCC2)C1C,-,MIC,-,-,25 µM
Nc1ccc(C(=O)Nc2ccccn2)cc1,-,MIC,-,H37Rv,>100 µg/mL
NC1CCN(c2c(F)cc3c(=O)c(C(=O)O)cn(C4CC4)c3c2Cl)C1,-,MBC,-,ATCC 35820,0.125 µg/mL
COC(=O)c1cc(=O)nc2n1[C@H]1O[C@@H](CO)[C@H](O)[C@@H]1O2,6.25 µg/mL,inhibition,resazurin,H37Rv,-113%
C[C@@H]1[C@H]2C[C@@H](C[C@H]1NCCNC(c1ccccc1)c1ccccc1)C2(C)C,-,MIC,-,-,12.5 µM
CC1=NN(C(=O)c2ccncc2)C(=O)C1N=Nc1ccc(Cl)cc1,-,MIC bound,BACTEC,H37Rv,>12.8 µg/mL
CCOC(=O)Nc1cc(N[C@@H](C)[C@H](O)c2ccccc2)c(N)c(N)n1,12.5 µg/mL,inhibition,-,H37Rv,0%
CCCCCCCCCCCNCCNCC1(O)CCCCC1,-,MIC,-,-,50 µM
O=c1[nH]nc(OCc2ccccc2)c2ncn(Cc3ccccc3)c12,-,MIC bound,BACTEC,H37Rv,>12.5 µg/mL
CN[C@@H]1[C@H](O[C@H]2[C@H](O[C@H]3[C@H](O)[C@@H](O)[C@H](N=C(N)N)[C@@H](O)[C@@H]3N=C(N)N)O[C@@H](C)[C@]2(O)C=O)O[C@@H](CO)[C@H](O)[C@H]1O,-,MIC,-,TN3218 (W3),>2 µg/mL
NC(=S)NC(=O)c1ccccc1,-,MIC,-,H37Rv,>100 µg/mL
CCCCC(CC)CN1CN(CC(CC)CCCC)CC(C)(NCCNCCc2ccc(O)c(O)c2)C1,-,MIC,-,-,12.5 µM
CCOc1cccc(OCC)c1N,-,MIC,-,H37Rv,100 µg/mL
CNC(=O)Nc1ccncc1,-,MIC bound,resazurin,H37Rv,>6.25 µg/mL
Cc1cc(C)c(C)c(C(=N/N)/C(=N/N)c2ccccc2)c1C,-,MIC,-,H37Rv,>100 µg/mL
O=C1CC(c2ccccc2)Oc2cc(Br)ccc21,-,EC50,-,-,<12.5 µg/mL
CCCCCCCCCCCCCC[n+]1cccc(C(N)=O)c1.[Br-],-,MIC bound,BACTEC,H37Rv,>12.5 µg/mL
Cc1occc(=O)c1O,-,MIC,-,H37Rv,>100 µg/mL
Cc1ccc(NCCNCCO)c2c(=O)c3cc(O)ccc3sc12,12.5 µg/mL,inhibition,BACTEC,H37Rv,97%
O=C1c2ccccc2OC(c2ccccc2)C1(Br)Br,12.5 µg/mL,inhibition,-,-,0%
CCOC(=O)C(C)Cl,-,MIC,-,H37Rv,>100 µg/mL
O=S1(=O)CS(=O)(=O)OCCCCO1,-,MIC,BACTEC,H37Rv,≥12.5 µg/mL
CCCCCCCCCCCCCCCCCCN(CCCCCCCCCCCCCCCCCC)CCCCCCCCCCCCCCCCCC,-,MIC,-,H37Rv,>100 µg/mL
COc1ccc(C2CC(=O)c3ccc(OC)cc3O2)cc1,-,EC50,-,H37Rv,>12.5 µg/mL
CCCCCCCCCCCCCCCCNC(N)=O,-,MIC,-,H37Rv,100 µg/mL
C[C@H]1C[C@H](N)CN1c1cc2c(cc1F)c(=O)c(C(=O)O)cn2-c1ccc(F)cc1F,-,MBC,-,ATCC 35822,>8 µg/mL
CC1(C)[C@H]2CC[C@@H](CNCCNCCCCc3ccccc3)[C@@H]1C2,-,MIC,-,-,50 µM
Cl.Nc1ccc(O)c(CN2CCOCC2)c1,-,MIC,-,H37Rv,>100 µg/mL
CCCCCCCCCCCNCCNCCCc1ccccc1,-,MIC,-,-,25 µM
CC(C)(CO)NCCNCCc1ccccc1F,-,MIC,-,-,25 µM
C/C=C/C(=O)N(C)c1ccccc1,-,MIC,-,H37Rv,>100 µg/mL
Nc1cc2n[nH]nc2c(=O)[nH]1,12.5 µg/mL,inhibition,BACTEC,H37Rv,-23%
OCCSCNC1CCCCC1,-,MIC,-,H37Rv,>100 µg/mL
CCOC(=O)NC(=O)c1cn(CC(=O)NCC(=O)NCC(=O)NCCCN2CCN(CCCNC(=O)CNC(=O)CNC(=O)Cn3cc(C(=O)NC(=O)OCC)c(=O)[nH]c3=O)CC2)c(=O)[nH]c1=O,6.25 µg/mL,inhibition,resazurin,H37Rv,15%
CC[C@H]1OC(=O)[C@H](C)[C@@H](O[C@H]2C[C@@](C)(OC)[C@@H](O)[C@H](C)O2)[C@H](C)[C@@H](O[C@@H]2O[C@H](C)C[C@H](N(C)C)[C@H]2O)[C@](C)(O)C[C@@H](C)CN(C)[C@H](C)[C@@H](O)[C@]1(C)O,-,MBC90,-,MDR,>8 µg/mL
COc1ccc(/C=C/C(=O)c2cc(Br)ccc2O)cc1,-,EC50,-,-,>12.5 µg/mL
O=C1OC2(CCCCC2)OC(=O)C1=C/C=C/c1ccc([N+](=O)[O-])o1,-,MIC bound,BACTEC,H37Rv,>12.5 µg/mL
CN(C)c1ccc(/C=C/C=N/NC(N)=O)cc1,-,MIC,-,H37Rv,>100 µg/mL
CCOC(=O)Nc1cc(N)c2nnsc2n1,-,EC50,-,H37Rv,>12.5 µg/mL
CC(=O)Oc1ccc(C2COc3cc(OC(C)=O)c(OC(C)=O)cc3C2)cc1,-,MIC,BACTEC,H37Rv,≥12.5 µg/mL
CNCCCc1cccs1.Cl,-,MIC,-,H37Rv,>800 µg/mL
C[C@@H]1CN(c2c(F)c(N)c3c(=O)c(C(=O)O)cn(C4CC4)c3c2F)C[C@H](C)N1,-,MBC90,-,Drug-resistant,0.25 µg/mL
c1ccc(N=Nc2ccccc2)cc1,-,MIC,-,H37Rv,50 µg/mL
CCCCCCc1cc(C(=O)NN)c2ccccc2n1,-,MIC bound,BACTEC,H37Rv,>12.5 µg/mL
CCCCN(c1ccccc1)S(=O)(=O)c1ccc2oc(C(=O)CC#N)cc2c1,-,MIC,-,H37Rv,>100 µg/mL
CCCCCCCCCCCNCCNC1CCCCCCC1,-,MIC,-,-,12.5 µM
CO[C@H]1/C=C/O[C@@]2(C)Oc3c(C)c(O)c4c(=O)c(c5oc6cc(N7CCN(CC(C)C)CC7)cc(=O)c6nc5c4c3=C2O)NC(=O)/C(C)=C\C=C\[C@H](C)[C@H](O)[C@@H](C)[C@@H](O)[C@@H](C)[C@H](OC(C)=O)[C@@H]1C,-,MIC,-,2219 (rifampin-resistant),0.1 µg/mL
CCOC(=O)Nc1cc2ncc(CN(C)c3ccc(C(=O)OC)cc3)nc2c(N)n1,-,EC50,-,H37Rv,>12.5 µg/mL
O=C(c1ccco1)N(C(=S)N1CCN(c2ccccc2)CC1)C1CCCCC1,-,MIC,resazurin,H37Rv,>6.25 µg/mL
CCOC(=O)Nc1cc2[nH]c(-c3cccc(C)c3)nc2c(N(CCc2ccccc2)Cc2ccccc2)n1,-,EC50,-,H37Rv,>12.5 µg/mL
C1CCCC(NCCNCC23CC4CC(CC(C4)C2)C3)CCC1,-,MIC,-,-,12.5 µM
O=[N+]([O-])c1ccc(CS(=O)(=O)c2ccccc2)o1,-,MIC bound,BACTEC,H37Rv,>12.5 µg/mL
Cc1cccc(O)c1N=Cc1ccccc1,-,MIC,-,H37Rv,>100 µg/mL
CC(=O)O[C@@]1(C)C(=O)OC/C2=C/CN(C)CC[C@@H](OC(=O)[C@@](O)([C@H](C)Cl)C[C@H]1C)C2=O.c1ccccc1,12.5 µg/mL,inhibition,BACTEC,H37Rv,2%
CC(=O)c1cccs1,-,MIC,-,H37Rv,>100 µg/mL
Cc1cc2nc(C/C(=N\O)c3ccncc3)c(C/C(=N\O)c3ccncc3)nc2cc1C,-,MIC bound,BACTEC,H37Rv,>12.5 µg/mL
CC(C)N=C(N)/N=C(\N)Nc1ccc(Cl)cc1,-,MIC,-,H37Rv,>100 µg/mL
C=C1C(=O)OC2CC1C(O)C/C(C)=C\CC/C(C)=C\C(O)CC2C,-,MIC,BACTEC,H37Rv,≥12.5 µg/mL
O=C(O)C(=O)c1c[nH]c2ccccc12,-,MIC,-,H37Rv,50 µg/mL

Repeating the first 11 entries:

{"smiles": "CC(C)CC(C)NCCNCCCCc1ccccc1", "endpoint": "MIC", "value": "50 µM"}
{"smiles": "COc1ccc(CNCCNC(C)c2cccc3ccccc23)cc1OC", "endpoint": "MIC", "value": "50 µM"}
{"smiles": "COC1OC2COC(C)(C)OC2C2OC(C)(C)OC12", "tested at": "12.5 µg/mL", "endpoint": "inhibition", "method": "BACTEC", "strain or isolate": "H37Rv", "value": "0%"}
{"smiles": "CC(C)c1ccc2c(c1)CC[C@H]1[C@](C)(CNCCNC3CCCCC3C)CCC[C@]21C", "endpoint": "MIC", "value": "25 µM"}
{"smiles": "CC[C@H]1OC(=O)[C@H](C)[C@@H](O[C@H]2C[C@@](C)(OC)[C@@H](O)[C@H](C)O2)[C@H](C)[C@@H](O[C@@H]2O[C@H](C)C[C@H](N(C)C)[C@H]2O)[C@](C)(O)C[C@@H](C)C(=O)[C@H](C)[C@@H](O)[C@]1(C)O", "endpoint": "MIC90", "strain or isolate": "DRUG-SUS", "value": ">8 µg/mL"}
{"smiles": "CNC(=O)c1ccc(NC(=O)Nc2ccc(C3=NCCN3)cc2)cc1NC(=O)Nc1cccc(C2=NCCN2)c1", "tested at": "12.5 µg/mL", "endpoint": "inhibition", "method": "BACTEC", "strain or isolate": "H37Rv", "value": "96%"}
{"smiles": "CC(CNCCc1ccc(O)cc1)NC[C@@H]1CC[C@H]2C[C@@H]1C2(C)C", "endpoint": "MIC", "value": "25 µM"}
{"smiles": "CO[C@H]1/C=C/O[C@@]2(C)Oc3c(C)c(O)c4c(O)c(c5c(c4c3C2=O)NC2(CCN(CC(C)C)CC2)N=5)=NC(=O)/C(C)=C\\C=C\\[C@H](C)[C@H](O)[C@@H](C)[C@@H](O)[C@@H](C)[C@H](OC(C)=O)[C@@H]1C", "endpoint": "MBC", "strain or isolate": "29 (rifampin-resistant)", "value": "0.2 µg/mL"}
{"smiles": "CC(C)=CCC/C(C)=C/CNCCNCC(C)c1ccccc1", "endpoint": "MIC", "value": "50 µM"}
{"smiles": "NCC[C@H](O)C(=O)N[C@@H]1C[C@H](N)[C@@H](O[C@H]2O[C@H](CN)[C@@H](O)[C@H](O)[C@H]2O)[C@H](O)[C@H]1O[C@H]1O[C@H](CO)[C@@H](O)[C@H](N)[C@H]1O", "endpoint": "MIC", "method": "broth dilution / resazurin", "strain or isolate": "MDR7", "value": "128 µg/mL"}
{"smiles": "CCCCCC(C)NCCNC[C@]1(C)CCC[C@]2(C)c3ccc(C(C)C)cc3CC[C@@H]12", "endpoint": "MIC", "value": "12.5 µM"}

ECn: concentration that inhibits the pathogen or its effect by n%. Blank or dashed fields: not listed here. Lines come from different laboratories, so protocols vary. MIC bound comes from a single tested concentration. Percent inhibition refers to the dose given; in toxicity tests it is the harm to the cells.